Data on one compound can be found in publication PMC6598531, “Appraisal of anti-protozoan activity of nitroaromatic benzenesulfonamides inhibiting carbonic anhydrases from Trypanosoma cruzi and Leishmania donovani” (Journal of Enzyme Inhibition and Medicinal Chemistry, 2019).

Chains of the proteins cited; added tags and fusions are not shown. Residues count along the entry.
UniProt Q4DKE0, 32-522 limits assumed: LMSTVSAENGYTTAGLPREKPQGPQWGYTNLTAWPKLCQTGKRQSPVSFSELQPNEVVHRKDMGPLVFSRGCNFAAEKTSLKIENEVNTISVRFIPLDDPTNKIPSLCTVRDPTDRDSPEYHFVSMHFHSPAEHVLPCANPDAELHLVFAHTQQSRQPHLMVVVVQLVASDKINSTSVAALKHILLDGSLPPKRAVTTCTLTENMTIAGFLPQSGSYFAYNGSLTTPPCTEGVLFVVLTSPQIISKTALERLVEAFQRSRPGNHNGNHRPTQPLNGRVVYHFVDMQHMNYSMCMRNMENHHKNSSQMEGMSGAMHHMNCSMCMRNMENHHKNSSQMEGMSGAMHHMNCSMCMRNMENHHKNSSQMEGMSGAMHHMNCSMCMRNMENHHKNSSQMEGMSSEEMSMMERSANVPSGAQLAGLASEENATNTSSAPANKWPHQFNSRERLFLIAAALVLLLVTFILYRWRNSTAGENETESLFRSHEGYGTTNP
UniProt A4HSV2, 1-306: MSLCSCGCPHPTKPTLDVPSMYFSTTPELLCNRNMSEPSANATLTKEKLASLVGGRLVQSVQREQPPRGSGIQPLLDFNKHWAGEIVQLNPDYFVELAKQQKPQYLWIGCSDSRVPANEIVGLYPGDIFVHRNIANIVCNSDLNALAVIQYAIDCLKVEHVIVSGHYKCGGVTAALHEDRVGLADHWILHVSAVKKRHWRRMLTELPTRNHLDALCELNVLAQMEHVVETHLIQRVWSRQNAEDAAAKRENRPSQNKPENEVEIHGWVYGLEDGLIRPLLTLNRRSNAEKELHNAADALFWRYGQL

The pKi is the negative decadic logarithm of the Ki, by convention in mol/L. As usually defined, the CC50 is the concentration that lowers cell viability or growth by half. The low end stands for greater toxicity to the cells, the high end for lower toxicity to the cells.

pKi: −log10 of the molar value. Some results are limits rather than exact numbers.

Series [1] has as its target TcCA (Trypanosoma cruzi, UniProt Q4DKE0). The experiment in a line: stopped flow CO2 hydrase assay, TcCA inhibition. The class given is biochemical.
Series [2] has as its system L. infantum. As to the kind of experiment: growth inhibition of L. infantum promastigotes (resazurin). The settings on record: 48 h, 28 °C. The class given is cell-based, Leishmania infantum. A general note: Resazurin is reduced to fluorescent resorufin, in cell work by metabolically active cells.
For series [3], the system named is T. cruzi Dm 28c. The experiment in a line: growth inhibition of T. cruzi Dm28c epimastigotes (resazurin). The following applies: 48 h. Format: cell-based, Trypanosoma cruzi.
In series [4] the test system is T. cruzi Y. The experiment in a line: growth inhibition of T. cruzi Y epimastigotes (resazurin). Format: cell-based, Trypanosoma cruzi. The following applies: 48 h, 28 °C.
Series [5] has as its system RAW 264.7 macrophages. As to the kind of experiment: cytotoxicity assay in macrophages (MTT). The following applies: 48 h.
In series [6] the target is LdcCA (Leishmania infantum, UniProt A4HSV2). The experiment in a line: stopped flow CO2 hydrase assay, LdcCA inhibition. The class given is biochemical.
The test system of series [7] is L. amazonensis. As to the kind of experiment: growth inhibition of L. amazonensis promastigotes (resazurin). Format: cell-based, Leishmania amazonensis. The settings on record: 48 h, 28 °C.

With `NS(=O)(=O)c1cc([N+](=O)[O-])c(O)c([N+](=O)[O-])c1`, the negative-log Ki (pKi) was 6.80 in series [1] (read-out: KI TcCA, stopped flow CO2 hydrase assay, mean from three assays) and 6.47 in series [6] (read-out: KI LdCA, stopped flow CO2 hydrase assay, mean from three assays). Besides, in series [1] (selectivity index, KI CA I / KI TcCA), the SI (KI1/KI2) CA I/TcCA came to 27.2. Further, in series [1] (selectivity index, KI CA II / KI TcCA), the SI (KI1/KI2) CA II/TcCA is 1.1. The “MIC L. infantum” value in series [2] was over 400 µM. Also, in series [3], the “MIC T. cruzi Dm 28c” value is reported as over 256 µM. The “MIC T. cruzi Y” value in series [4] is on record as over 256 µM. Also, the CC50 in series [5] is 100000 nM. Further, the SI (KI1/KI2) CA I/LdcCA in series [6] (selectivity index, KI CA I / KI LdcCA) stood at 12.8. Besides, the SI (KI1/KI2) CA II/LdcCA in series [6] (selectivity index, KI CA II / KI LdcCA) came to 0.5. Besides, the “MIC L. amazonensis” value in series [7] is over 400 µM.
